Data as given in patent publication US7662860B2 (priority 2003, dated 2010).

Target: SARS-CoV virus 3CL protease protein (Severe acute respiratory syndrome coronavirus, UniProt P0C6X7)
Details: SPR, 3CL protease fixed on CM5 chip, cinanserin as mobile phase 62.5-2000 nM

## CN(C)CCCSc1ccccc1NC(=O)C=Cc1ccccc1 [cinanserin, 2′-(3-dimethylaminopropylthio)cinnamanilide]
  Kd: 2.57 µM
